PubChem BioAssay AID624099, ICCB-Longwood | 2012
The whole screen tested about 21,000 reagents; below is a part drawn at random. In the full data, 497 (2.4%) are marked active. 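Higher z means weaker E2 silencing; only reporter increases were scored, and knock-downs that hurt cell survival may mask genuine repressor factors.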 Unmarked entries are inactive. The numbers tell different reagents against one gene apart. No sequences are given here.

Aim: 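Host factors E2 relies on to silence an HPV18 LCR reporter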 (primary screen)
Cells: human C33A cervical carcinoma cells (HPV-negative) stably expressing BPV1 E2 and an HPV18 LCR luciferase reporter
Knock-down reagent: siRNA pool against human genes, 40 nM
Duration: 72 h
Measurement: 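Per-well luciferase luminescence, z-scored on each plate against the plate mean and SD with control wells left out, then averaged across three replicate plates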
Reading the numbers: mean z-score and z-score: higher = stronger reporter signal, weaker E2 silencing
Rule for the call: 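Mean z ≥ 2 together with z ≥ 2 in two or more of the three replicates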

no.	Gene	pool no.	mean z-score	z-score, replicate A	z-score, replicate B	z-score, replicate C
1	FGF12 (fibroblast growth factor 12)	1	1.71	1.75	1.6	1.78
2	SPCS2P1 (signal peptidase complex subunit 2 pseudogene 1)	1	0.52	-0.15	0.71	0.99
3	GJB2 (gap junction protein beta 2)	1	-0.83	-0.92	-0.71	-0.84
4	TPTE2	1	2.19 (active)	2.09	2.12	2.36
5	TACC1 (transforming acidic coiled-coil containing protein 1)	1	-0.45	-0.34	-0.61	-0.42
6	GNAQ (G protein subunit alpha q)	1	-0.22	0.01	-0.26	-0.41
7	IFIH1 (interferon induced with helicase C domain 1)	1	1.65	1.66	1.77	1.52
8	UBAP2L (ubiquitin associated protein 2 like)	1	-0.42	-0.64	-0.14	-0.48
9	SMIM30 (small integral membrane protein 30)	1	0.61	0.75	0.72	0.35
10	SMIM30 (small integral membrane protein 30)	2	1.17	1.18	1.24	1.1
11	ZSWIM5 (zinc finger SWIM-type containing 5)	1	-0.11	0.08	0.1	-0.51
12	CACNG5 (calcium voltage-gated channel auxiliary subunit gamma 5)	1	-0.82	-0.42	-1.09	-0.97
13	SAXO5 (stabilizer of axonemal microtubules 5)	1	-0.28	-0.03	-0.6	-0.2
14	TMF1 (TATA element modulatory factor 1)	1	0.14	0	0.12	0.29
15	RAD51B (RAD51 paralog B)	1	1.91	1.85	2.24	1.66
16	SEC24C (SEC24 homolog C, COPII component)	1	-0.5	-0.47	-0.63	-0.41
17	ELANE (elastase, neutrophil expressed)	1	-0.52	-0.74	-0.65	-0.18
18	OTOR (otoraplin)	1	-1.47	-1.31	-1.7	-1.4
19	TEX38 (testis expressed 38)	1	0.18	0.19	0.26	0.1
20	VSIG1 (V-set and immunoglobulin domain containing 1)	1	-0.31	-0.21	-0.2	-0.51
21	TUB (TUB bipartite transcription factor)	1	-0.2	0.27	-0.36	-0.49
22	SYP (synaptophysin)	1	-0.03	-0.12	-0.03	0.06
23	NECAB3 (N-terminal EF-hand calcium binding protein 3)	1	-0.67	-1.02	-0.68	-0.3
24	LINC02873 (long independently transcribed non-coding RNA 2873)	1	0.01	0.17	-0.56	0.41
25	USP8 (ubiquitin specific peptidase 8)	1	-0.48	-0.21	-0.74	-0.49
26	NTRK1 (neurotrophic receptor tyrosine kinase 1)	1	-0.07	-0.41	0.02	0.18
27	LOC388210 (retired record)	1	-0.73	-0.75	-0.62	-0.83
28	TXLNG (taxilin gamma)	1	-1.2	-1.26	-1.37	-0.97
29	NOL7 (nucleolar protein 7)	1	-0.71	-0.29	-0.71	-1.13
30	GLB1L3 (galactosidase beta 1 like 3)	1	-0.73	-0.47	-0.84	-0.87
31	GLB1L3 (galactosidase beta 1 like 3)	2	-0.22	-0.07	-0.08	-0.51
32	IMMP2L (inner mitochondrial membrane peptidase subunit 2)	1	0.08	0.1	-0.08	0.22
33	PTGES3P1 (prostaglandin E synthase 3 pseudogene 1)	1	0.74	0.95	0.81	0.47
34	MMUT (methylmalonyl-CoA mutase)	1	-0.47	-0.39	-0.47	-0.55
35	GTSF1 (gametocyte specific factor 1)	1	-0.3	0.02	-0.45	-0.47
36	ARHGAP5 (Rho GTPase activating protein 5)	1	-0.27	-0.18	-0.33	-0.29

4 neighbouring records already listed:
no.	Gene	pool no.	mean z-score	z-score, replicate A	z-score, replicate B	z-score, replicate C
3	GJB2 (gap junction protein beta 2)	1	-0.83	-0.92	-0.71	-0.84
4	TPTE2	1	2.19 (active)	2.09	2.12	2.36
5	TACC1 (transforming acidic coiled-coil containing protein 1)	1	-0.45	-0.34	-0.61	-0.42
6	GNAQ (G protein subunit alpha q)	1	-0.22	0.01	-0.26	-0.41

The results go on.
no.	Gene	pool no.	mean z-score	z-score, replicate A	z-score, replicate B	z-score, replicate C
37	ILDR2 (immunoglobulin like domain containing receptor 2)	1	-0.05		0.16	-0.25
38	DNAAF11 (dynein axonemal assembly factor 11)	1	0.14	-0.14	0.55	0.01
39	PDCD6IP (programmed cell death 6 interacting protein)	1	0.8	1.15	0.67	0.57
40	HCP5 (HLA complex P5)	1	0.32	0.53	0.08	0.34
41	RPL7AP27 (ribosomal protein L7a pseudogene 27)	1	-1.26	-1.21	-1.44	-1.13
42	FHIP2B (FHF complex subunit HOOK interacting protein 2B)	1	1.59	1.44	1.64	1.69
43	HES1 (hes family bHLH transcription factor 1)	1	1	1.31	0.9	0.78
44	FZD3 (frizzled class receptor 3)	1	0.81	0.78	0.83	0.83
45	SELENBP1 (selenium binding protein 1)	1	0.76	0.69	0.74	0.85
46	LOC390468 (retired record)	1	-0.98	-1.22	-1.07	-0.65
47	YEATS4 (YEATS domain containing 4)	1	2.54 (active)	2.38	2.66	2.58
48	CCDC142 (coiled-coil domain containing 142)	1	1.1	1	1.23	1.06
49	PURB (purine rich element binding protein B)	1	-0.09	-0.31	-0.09	0.12
50	LRRC39 (leucine rich repeat containing 39)	1	-0.57	-0.4	-0.85	-0.44
51	LANCL1 (LanC like glutathione S-transferase 1)	1	1.18	1.17	1.15	1.23
52	ZNF672 (zinc finger protein 672)	1	-0.4	-0.28	-0.61	-0.3
53	CCNYL2 (cyclin Y like 2 (pseudogene))	1	-0.18	-0.29	0.09	-0.35
54	LINC02911 (long independently transcribed non-coding RNA 2911)	1	-1.23	-1.17	-1.3	-1.24
55	DENND2A (DENN domain containing 2A)	1	0.96	0.83	1.51	0.54
56	CDC25C (cell division cycle 25C)	1	0.24	0.4	0.15	0.17
57	FPGS (folylpolyglutamate synthase)	1	-0.94	-0.84	-0.94	-1.04
